Measured values: paper PMC6894747 (PLoS Pathogens, 2019)
Positions of bridges follow the written chain, without caps; N, C: chain ends. Residues, ends and D or L forms follow the SMILES beside them. No end group written: not given here.

Tested on: rhesus monkey IgG
Assay: Isothermal titration calorimetry (ITC)
Format: binding
Details: for ΔH / ΔS: ITC, 300 μM peptide into 30 μM rhesus monkey IgG, PBS, 25 °C
Method: ITC assay was performed with an ITC microcalorimeter instrument (NANO ITC, TA Instruments, Lindon, UT) as described previously. In brief, 300 μM peptides were dissolved in PBS and injected into the chamber containing 30 μM of rhesus monkey IgG. The experiments were carried out at 25 °C. The time between injections was 300 s, and the stirring speed was 300 rpm. The heats of dilution were determined in control experiments by injecting peptides into PBS and then subtracting from the heats produced in the corresponding peptide-IgG binding experiments. Data acquisition and analysis were performed using the Origin software, and the best fitting curves were generated with GraphPad Prism.

## CC[C@H](C)[C@H](NC(=O)[C@H](CC(C)C)NC(=O)[C@H](CCC(=O)O)NC(=O)[C@H](CCC(=O)O)NC(=O)[C@@H](NC(=O)[C@H](CCCCN)NC(=O)[C@H](CCCCN)NC(=O)[C@@H](NC(=O)[C@H](Cc1ccc(O)cc1)NC(=O)[C@H](CCC(=O)O)NC(=O)[C@H](CCC(=O)O)NC(=O)[C@@H](NC(=O)[C@H](CCCCN)NC(=O)[C@H](CCCCN)NC(=O)[C@H](CC(=O)O)NC(=O)[C@H](Cc1c[nH]c2ccccc12)NC(=O)[C@H](CCC(=O)O)NC(=O)[C@H](CCC(=O)O)NC(=O)[C@H](Cc1c[nH]c2ccccc12)NC(=O)[C@@H](NC(=O)[C@H](CCSC)NC(=O)[C@@H](NC(=O)[C@@H]1CSSC[C@H](NC(=O)[C@@H](N)CC(=O)O)C(=O)N[C@@H](C)C(=O)N[C@@H](Cc2c[nH]c3ccccc23)C(=O)N[C@@H](Cc2c[nH]cn2)C(=O)N[C@@H](CC(C)C)C(=O)NCC(=O)N[C@@H](CCC(=O)O)C(=O)N[C@@H](CC(C)C)C(=O)N[C@@H](C(C)C)C(=O)N[C@@H](Cc2c[nH]c3ccccc23)C(=O)N1)[C@@H](C)O)[C@@H](C)O)[C@@H](C)CC)[C@@H](C)O)[C@@H](C)CC)C(=O)N[C@@H](CCCCN)C(=O)N[C@@H](CCCCN)C(=O)N[C@@H](CO)C(=O)O [IBP-CP24] (H-DCAWHLGELVWCTMTWEEWDKKIEEYTKKIEELIKKS-OH; disulfide 2-12; N-terminus and C-terminus assumed)
ITC Kd comparison with IBP
  fold more potent binding to monkey IgG than IBP: about 1.6 fold
  ΔH: -12.96 kcal/mol
  ΔS: -66.54 J/mol.K

## CC(C)C[C@@H]1NC(=O)[C@H](Cc2c[nH]cn2)NC(=O)[C@H](Cc2c[nH]c3ccccc23)NC(=O)[C@H](C)NC(=O)[C@@H](NC(=O)[C@@H](N)CC(=O)O)CSSC[C@@H](C(=O)N[C@H](C(=O)O)[C@@H](C)O)NC(=O)[C@H](Cc2c[nH]c3ccccc23)NC(=O)[C@H](C(C)C)NC(=O)[C@H](CC(C)C)NC(=O)[C@H](CCC(=O)O)NC(=O)CNC1=O [IBP]
  ΔH: -4.039 kcal/mol
  ΔS: 50.79 J/mol.K

## MTWEEWDKKIEEYTKKIEELIKKS [CP24, reference compound]
  ΔH: -6.121 kcal/mol
  ΔS: -28.46 J/mol.K
